Share of PSTVd loop 15 variants by leaf site

Reference: Wu et al. 2024, doi:10.1371/journal.ppat.1012142.

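A pool of all variants was put on leaves of three Nicotiana benthamiana plants. Progeny were sequenced from the inoculated region (day 5), the margin of the inoculated leaf (day 10) and systemic leaves (day 12).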

Region: loop 15 of PSTVd (intermediate strain), upper and lower strand joined, each 5' to 3', the first 7 letters being the upper strand, closing pairs included. Wild type: GGAAACCGCUACUAC. Varied positions (N): GGAAACCGNNNNNNC.

Values are reads per thousand in the sample; higher means more abundant, 0 means not found. Each site shows the three plants. "Pool" is the share in the plasmid pool used as inoculum, on the same scale. The inoculated region was read from the minus strand, the other sites from the plus strand. Sequences that differ at fixed positions probably stem from PCR or sequencing errors, and defective variants can be carried along by functional ones. With 43,870-66,106 reads a sample, very low values are single reads. Wild type was 33.9 per thousand in the pool and the most common sequence in every sample (inoculated region 202, 200, 159; leaf margin 724, 746, 710; systemic leaves 856, 883, 880).

- GGAAACCGGACGUUC (pool 0.208): inoculated region 0.328 / 0.257 / 0.381; leaf margin 0.0647 / 0.156 / 0.100; systemic leaves 0.0805 / 0 / 0
- GGAAACCGAUUCAAC (pool 0.224): inoculated region 0.0983 / 0.0803 / 0.0571; leaf margin 0 / 0 / 0.0200; systemic leaves 0 / 0 / 0
- GGAAACCGCACUAGC (pool 0.320): inoculated region 0.0164 / 0.0643 / 0.0762; leaf margin 0.0162 / 0 / 0.0401; systemic leaves 0 / 0 / 0
- GGAAACCGACGUUCC (pool 0.160): inoculated region 0.0491 / 0.0482 / 0.0571; leaf margin 0 / 0 / 0; systemic leaves 0 / 0 / 0
- GGAAACCGUAUAGCC (pool 0.192): inoculated region 0.131 / 0.193 / 0.114; leaf margin 0 / 0.0223 / 0.0200; systemic leaves 0.0161 / 0 / 0
- GGAAACCGGCAGAUC (pool 0.208): inoculated region 0.0819 / 0.112 / 0.152; leaf margin 0 / 0 / 0.0200; systemic leaves 0 / 0 / 0
- GGAAACCGGUGGGGC (pool 0.192): inoculated region 0.0819 / 0.129 / 0.0952; leaf margin 0 / 0 / 0.0601; systemic leaves 0 / 0 / 0
- GGAAACCGUAAGUCC (pool 0.208): inoculated region 0.213 / 0.273 / 0.305; leaf margin 0.113 / 0.0445 / 0.120; systemic leaves 0.0805 / 0.0151 / 0.114
- GGAAACCGAGGUAGC (pool 0.256): inoculated region 0.0819 / 0.0643 / 0.133; leaf margin 0.0162 / 0.0223 / 0.0200; systemic leaves 0 / 0 / 0
- GGAAACCGGACAUGC (pool 0.176): inoculated region 0.0819 / 0.0321 / 0; leaf margin 0.0162 / 0 / 0.0200; systemic leaves 0 / 0 / 0
- GGAAACCGCUCGGUC (pool 0.288): inoculated region 0.197 / 0.225 / 0.476; leaf margin 0.146 / 0.0891 / 0.140; systemic leaves 0.0161 / 0 / 0
- GGAAACCGGGUGGCC (pool 0.160): inoculated region 0.115 / 0.112 / 0.133; leaf margin 0 / 0 / 0; systemic leaves 0 / 0 / 0
- GGAAACCGAUAAGGC (pool 0.240): inoculated region 0.0819 / 0.129 / 0.114; leaf margin 0.0323 / 0.0223 / 0; systemic leaves 0.0161 / 0 / 0
- GGAAACCGAGUUACC (pool 0.192): inoculated region 0.131 / 0.129 / 0.0571; leaf margin 0 / 0.0223 / 0; systemic leaves 0 / 0 / 0
- GGAAACCGUCCAUUC (pool 0.192): inoculated region 0.409 / 0.273 / 0.647; leaf margin 0.129 / 0.134 / 0.0801; systemic leaves 0.0966 / 0 / 0
- GGAAACCGUACAGAC (pool 0.112): inoculated region 0.0819 / 0.0964 / 0.114; leaf margin 0 / 0 / 0; systemic leaves 0 / 0 / 0
- GGAAACCGAAAAUAC (pool 0.128): inoculated region 0.246 / 0.321 / 0.457; leaf margin 0.0647 / 0.0445 / 0.180; systemic leaves 0.0322 / 0.0454 / 0.137
- GGAAACCGCGAAGUC (pool 0.256): inoculated region 0.0983 / 0.145 / 0.0571; leaf margin 0 / 0.0223 / 0; systemic leaves 0 / 0 / 0
- GGAAACCGAUGCGCC (pool 0.192): inoculated region 0.115 / 0.0482 / 0.0952; leaf margin 0 / 0 / 0; systemic leaves 0 / 0 / 0
- GGAAACCGACGAUAC (pool 0.208): inoculated region 0.246 / 0.161 / 0.400; leaf margin 0.162 / 0.111 / 0.140; systemic leaves 0.0483 / 0.0454 / 0.0912
- GGAAACCGACCCGAC (pool 0.240): inoculated region 0.164 / 0.129 / 0.133; leaf margin 0.0162 / 0 / 0.0200; systemic leaves 0.0161 / 0 / 0
- GGAAACCGCACCUUC (pool 0.144): inoculated region 0.0655 / 0.145 / 0.152; leaf margin 0 / 0 / 0; systemic leaves 0.0161 / 0 / 0
- GGAAACCGCUCUGAC (pool 0.176): inoculated region 0.115 / 0.193 / 0.209; leaf margin 0.0323 / 0.0223 / 0.0200; systemic leaves 0.0322 / 0 / 0
- GGAAACCGUUGACCC (pool 0.160): inoculated region 0.115 / 0.0803 / 0.0571; leaf margin 0.0162 / 0 / 0; systemic leaves 0 / 0 / 0
- GGAAACCGGCGGCAC (pool 0.336): inoculated region 0.0819 / 0.0643 / 0.0571; leaf margin 0 / 0 / 0.0401; systemic leaves 0 / 0 / 0
- GGAAACCGAUGUCGC (pool 0.256): inoculated region 0.0491 / 0.177 / 0.0571; leaf margin 0.0162 / 0.0223 / 0; systemic leaves 0 / 0 / 0
- GGAAACCGGGGCUCC (pool 0.224): inoculated region 0.0491 / 0.0482 / 0.171; leaf margin 0 / 0 / 0; systemic leaves 0.0161 / 0 / 0
- GGAAACCGCUCUGCC (pool 0.304): inoculated region 0.0655 / 0.0964 / 0.0571; leaf margin 0 / 0.0223 / 0.0401; systemic leaves 0 / 0 / 0

The opening 2 entries, copied out:

- GGAAACCGGACGUUC (pool 0.208): inoculated region 0.328 / 0.257 / 0.381; leaf margin 0.0647 / 0.156 / 0.100; systemic leaves 0.0805 / 0 / 0
- GGAAACCGAUUCAAC (pool 0.224): inoculated region 0.0983 / 0.0803 / 0.0571; leaf margin 0 / 0 / 0.0200; systemic leaves 0 / 0 / 0